# Test results: patent US20240043504A1 (published 2024)
# Numbering of substitutions follows the chain as printed.
# B1: mAb10939 (antibody, V domains shown)
# VH: EVQLVESGGGLVQPGGSLRLSCAASGLTVSSNYMNWVRQVPGKGLEWVSVIYSGGSKFYVDSVKGRFTISRHNSKNTLYLQMNSLRPEDTAVYYCTRDAQYYGMDVWGQGTTVTVSS
# VL: DIQMTQSPSSLSASVGDRVTITCRASQSISTYLHWYQQKPGEAPKLLIYAASSLQSGVPSRFSGSGSGTDFTLTISSLQPEDFATYYCQQSYSTPPEIFGQGTKLEIKR
# B2: mAb10938 (antibody, V domains shown)
# VH: EVQLVESGGGLVQPGGSLRLSCAVSGFTVSSNYMSWVRQAPGKGLEWVSLIYSGGSTFYADSVKGRFTISRHNSKNTLYLQMNSLRAEDTAVYYCAREGGYSYDYNYWGQGTLVTVSS
# VL: DIQMTQSPSSLSASVGDRVTITCQASQDIRNYLNWYQQKPGKAPKLLIYDASNLETGVPSRFSGIGSGTDFTFTISSLQPEDIATYYCQQYDNLPITFGQGTRLEIKR
# B3: mAb10935 (antibody, V domains shown)
# VH: EVQLVESGGGLVQPGGSLRLSCAASGFTVSSNYMSWVRQAPGKGLEWVSLIYSGGSTYYADSVKGRFTISRHNSKNTLYLQMNSLRSEDTAVYYCARVPLGDYYYGMDVWGQGTTVTVSS
# VL: B2 VL with R30N, N31K, I65S, Y91S, I96L, Q100G, R103K, L104V
# B4: mAb10966 (antibody, V domains shown)
# VH: EVQLVESGGGLVQPGGSLRLSCAASGLTVSSNYMSWVRQAPGKGLEWVSVIYSGGSTFYADSVKGRFTISRDNSKNTLYLQMNSLRPEDTAVYYCAREGRIAATGYGMDVWGQGTTVTVSS
# VL: B2 VL with R30S, E55G, I65S, G66R, Q89H, I96Q, Q100P, R103K, L104V, E105D
# B5: mAb10922 (antibody, V domains shown)
# VH: EVQLVESGGGLVQPGGSLRLSCAASGFTFSIYEMNWVRQAPGKGLEWVSYITSSGTTIYYADSVKGRFTISRDNAKNSLYLQMNSLRAEDTAVYYCASSSSSGYYFDYWGQGTLVTVSS
# VL: not shown
# B6: mAb10930 (antibody, V domains shown)
# VH: EVQLVESGGGLVQPGRSLRLSCAASGFTFDDYAMYWVRQAPGKGLEWVSGISWNSGSIGYADSVKGRFTISRDNAKNSLYLQMNSLRAADTALYYCAKDKDWNSRGYYYYGMDVWGQGTTVTVSS
# VL: not shown
# B7: mAb10982 (antibody, V domains shown)
# VH: EVQLVESGGGLVQPGGSLRLSCAASGLTVSSNYMSWVRQAPGKGLEWVSVIYSGGTTYYADSVKGRFTISRHNSKNTLSLQMNSLRAEDTAVYYCARGEGANYYGMDVWGQGTTVTVSS
# VL: QSVLTQPPSVSGAPGQRVTISCTGSSSNIGTGYDVHWYQQLPGTAPKLLIYGNSNRPSGVPDRFSGSKSGTSASLAITGLQAEDEADYYCQSYDSSLSGYVVFGGGTKLTVLG
# B8: mAb10984 (antibody, V domains shown)
# VH: EVQLVESGGGLVQPGGSLRLSCAASGLTVNRNYMSWVRQAPGKGLEWVSLIYSGGSTYYADSVKGRFTISRDNSKNTLYLQMNSLRLEDTAVYYCARGELGIPYGMDVWGQGTTVTVSS
# VL: QSVLTQPPSVSAAPGQKVTISCSGSSSNIGNNYVSWYQQLPGTAPKLLIYDNNKRPSGIPDRFSGSKSGTSATLGITGLQTGDEADYYCGTWDSSLSAGVFGGGTKLTVLG
# B9: mAb10939 (antibody, V domains shown)
# VH: B1 VH
# VL: B1 VL
# B10: mAb10934 (antibody, V domains shown)
# VH: not shown
# VL: B2 VL with R30W, L33I, E55K, I65S, Y91H, N93D, I96P, R103K, L104V
# B11: mAb10954 (antibody, V domains shown)
# VH: EVQLVESGGGLVQPGGSLRLSCAASGITVSSNYMSWVRQAPGKGLEWVSLIYSGGSTYYADSVKGRFTISRDNSKNTLYLQMNSLRVEDTAVYYCARDHGMAAAGYNYWGQGTLVTVSS
# VL: B2 VL with R30N, N31K, I65S, S76N, I83F, Y87F, I96P, T97A, R103K, L104V
# B12: mAb10935 (antibody, V domains shown)
# VH: B3 VH
# VL: B2 VL with R30N, N31K, I65S, Y91S, I96L, Q100G, R103K, L104V
# B13: mAb10938 (antibody, V domains shown)
# VH: B2 VH
# VL: B2 VL
# B14: mAb10966 (antibody, V domains shown)
# VH: B4 VH
# VL: B2 VL with R30S, E55G, I65S, G66R, Q89H, I96Q, Q100P, R103K, L104V, E105D
# B15: mAb10922 (antibody, V domains shown)
# VH: B5 VH
# VL: not shown
# B16: mAb10971 (antibody, V domains shown)
# VH: EVQLVESGGGLIQPGGSLRLSCAASGVTVSSNYMSWVRQAPGKGLEWVSVIYSGGSTFYSDSVKGRFSISRDNSKNTLYLQMNSLRAEDTAVYYCARDLYYYGMDVWGQGTTVTVSS
# VL: DIQLTQSPSFLSASVGDRVTITCRASQGISTYLAWYQQKPGKAPKLLIYAASTLQSGVPSRFSGSGSGTEFTLTISSLQPEDFATYYCQQLDSYPGLTFGGGTKVEIKR
# B17: mAb10930 (antibody, V domains shown)
# VH: B6 VH
# VL: not shown
# B18: mAb10989 (antibody, V domains shown)
# VH: QVQLVQSGAEVKKPGASVKVSCKASGYIFTGYYMHWVRQAPGQGLEWMGWINPNSGGANYAQKFQGRVTLTRDTSITTVYMELSRLRFDDTAVYYCARGSRYDWNQNNWFDPWGQGTLVTVSS
# VL: QSALTQPASVSGSPGQSITISCTGTSSDVGTYNYVSWYQQHPGKAPKLMIFDVSNRPSGVSDRFSGSKSGNTASLTISGLQAEDEADYYCSSFTTSSTVVFGGGTKLTVLG
# B19: mAb10982 (antibody, V domains shown)
# VH: B7 VH
# VL: B7 VL
# B20: mAb10985 (antibody, V domains shown)
# VH: EVQLVESGGGLVQPGRSLRLSCAASGFTFDDYAMHWVRQAPGKGLEWVSGISWNRGSIGYADSVKGRFTISRDNAKNSLYLQMSSLRAEDTALYYCAKDGERWDSVVVPSARNGMDVWGQGTTVTVSS
# VL: B7 VL with T31A, Y100S, V101Y, G105T, L109V
# Target: SARS-COV-2 RBD extracellular domain expressed with a C-terminal myc-myc-hexahistidine tag (SARS-CoV-2)
# Experiment: SPR Biacore, mAb captured via anti-hFc, 37 C
Binder,90 nM Ag Bound (RU),Kd,t½,koff,kon
B1,90 RU,39.5 nM,1.2 min,,
B2,100 RU,10.5 nM,10.3 min,,
B3,75 RU,85.6 nM,0.3 min,,
B4,118 RU,3.79 nM,6.9 min,,
B5,130 RU,8.89 nM,1.2 min,,
B6,42 RU,81.4 nM,0.6 min,0.0187 s⁻¹,230000 M⁻¹ s⁻¹

# Target: SARS-COV-2 RBD extracellular domain expressed with a C-terminal mouse IgG2a (SARS-CoV-2)
# Experiment: SPR Biacore, mAb captured via anti-hFc, 25 C
row,Binder,30 nM Ag Bound (RU)
1,B1,67 RU
2,B2,47 RU
3,B3,88 RU
4,B4,73 RU
5,B5,80 RU
6,B6,61 RU

# Target: Bt-MERS.hFc (mAb2664-L2) (MERS-CoV)
# Experiment: Luminex, supernatant
row,Binder,MFI
1,B7,42 MFI

# Target: MERS.hFc (mAb2664-L1) (MERS-CoV)
# Experiment: Luminex, supernatant
row,Binder,MFI
1,B7,60 MFI

# Target: MERS.mFc (mAb2663-L1) (MERS-CoV)
# Experiment: Luminex, supernatant
row,Binder,MFI
1,B7,64 MFI

# Target: SARS-CoV-2-S-RBD-mmH (RBD of SARS-CoV-2 spike, amino acids 319-541, with a 6x histidine tag and two (SARS-CoV-2))
# Experiment: ELISA, RBD-mmH coated, supernatant 1:50, a-hFc detection
row,Binder,Binding Signal (absorbance at 450 nm)
1,B8,0.716 absorbance at 450 nm
2,B9,2.52 absorbance at 450 nm
3,B10,2.69 absorbance at 450 nm
4,B11,1.96 absorbance at 450 nm
5,B12,2.68 absorbance at 450 nm
6,B13,2.54 absorbance at 450 nm
7,B14,0.421 absorbance at 450 nm
8,B15,2.6 absorbance at 450 nm
9,B16,3.05 absorbance at 450 nm
10,B17,2.45 absorbance at 450 nm
11,B18,3.12 absorbance at 450 nm
12,B19,2.54 absorbance at 450 nm
13,B20,2.35 absorbance at 450 nm
